These results are taken from article doi:10.1101/2025.05.22.655646, “Structural insights into VRC01-class bnAb precursors with diverse light chains elicited in the IAVI G001 human vaccine trial” (bioRxiv, 2025).

In the experiment the target is T1, eOD-GT8 (Human immunodeficiency virus 1, …).
T1 construct: also called engineered outer domain germline-targeting version 8; eOD-GT8 monomer
T1 chain: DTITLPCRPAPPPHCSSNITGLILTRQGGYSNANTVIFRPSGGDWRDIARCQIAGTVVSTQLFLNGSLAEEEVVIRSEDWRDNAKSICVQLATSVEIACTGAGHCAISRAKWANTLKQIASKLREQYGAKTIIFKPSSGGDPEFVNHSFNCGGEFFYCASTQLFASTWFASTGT
Put plainly: SPR. Conditions: both partners purified.

B1: G001_LD_V05_VRC01c_14 (antibody, V domains shown)
VH: not shown
VL: DIQMTQSPSSLSASVGDRVTITCQASQDINNYLNWYQQKPGKAPKLLIYDASNLETGVPSRFSGSGSGTDFTFTISSLQPEDIATYYCQQYEFFGGGTKVEIK
In the case of B1, binding was characterised by a dissociation constant (Kd) of 0.37 nM.
